# B1: 3D-sensor V7-62 fused to the VP16 activation domain (peptide)
# chain: WRPYYTVLCALASWH
# modifications: not checked
# B2: 3D-sensor H5-34 fused to the VP16 activation domain (peptide)
# chain: PSNHRQSTRSTPWLW
# modifications: not checked
# Assays:
# [1] = molecular target: single chain NS4A-NS3 protease (native) fused to the yeast Gal4 DBD (pVVS602) (yeast; hepatitis C virus genotype 1b), P04386; experiment: cell-based or functional assay
# [2] = molecular target: single chain NS4A-NS3 full length protein (native) fused to the yeast Gal4 DBD (pVVS772) (yeast; hepatitis C virus genotype 1b), P26662; experiment: cell-based or functional assay
binder,measurement,setting,value
B1,luciferase activity over background without the 3D sensor-VP16AD (times background),[1],80
B2,luciferase activity over background without the 3D sensor-VP16AD (times background),[2],42

# From patent US20110251085A1, “IN VITRO METHOD TO DETERMINE WHETHER A DRUG CANDIDATE ACTIVE AGAINST A TARGET PROTEIN IS ACTIVE AGAINST A VARIANT OF SAID PROTEIN” (VIVALIS, priority 2008, published 2011)
